Results of unrelated studies side by side (data: NIAID ChemDB).

Common to all: growth or infection tests; species: Mycobacterium kansasii

a–b is a range or a potency band. An empty or dashed field is not shown. MIC50, MIC90 and the like: level of inhibition, or share of isolates inhibited. Lines come from different laboratories, so protocols vary.

compound | setting | endpoint | strain or isolate | read by | result
CC(C)c1ccc(NC(=O)NNC(=O)c2ccncc2)cc1 | 7 d | MIC100 | My 235/80 | broth dilution | 16 µM
O=C(Nc1ccc(F)cc1)c1cc(Cl)ccc1OS(=O)(=O)c1ccccc1 | 14 d | MIC | 235/80 |  | 8 µM
Cc1ccc(-n2c(=O)oc3ccc(F)cc3c2=S)cc1 | 21 d | MIC | 6509/96 |  | 2 µM
O=C(Nc1ccc(C(F)(F)F)cc1)c1ccc(Cl)cc1OS(=O)(=O)c1ccccc1 | 21 d | MIC | 235/80 |  | 4 µM
O=C(Oc1cc(Cl)ccc1C(=O)Nc1ccc(F)cc1)c1cnccn1 | 7 d | MIC | 235/80 |  | 2 µM
O=C(Nc1ccc(Cl)c(Cl)c1)c1cc(Cl)ccc1OS(=O)(=O)c1ccccc1 | 14 d | MIC | 6509/96 |  | 8 µM
NNC(=O)c1ccncc1 | 14 d | MIC | 6509/96 |  | 4 µM
Cc1ccc2oc(=S)n(-c3ccc(Cl)cc3)c(=S)c2c1 | 14 d | MIC | My 235/80 |  | 4 µM
O=C(Oc1cc(Cl)ccc1C(=O)Nc1ccc(C(F)(F)F)cc1)c1cnccn1 | 14 d | MIC | 6509/96 |  | 1 µM
O=C(Nc1ccc(Cl)cc1)c1cc(Cl)ccc1OS(=O)(=O)c1ccccc1 | 7 d | MIC | 6509/96 |  | 8 µM
NC(=O)c1cnccn1 | 7 d | MIC | 235/80 |  | 250–1000 µM
O=C(Nc1ccc(Br)cc1)c1ccc(Br)cc1OS(=O)(=O)c1ccccc1 | 7 d | MIC | 6509/96 |  | 4 µM
O=C(NNC(=O)c1ccncc1)Nc1ccc(Br)c(C(F)(F)F)c1 | 7 d | MIC100 | My 235/80 | broth dilution | >125 µM
O=C(Oc1ccc(Cl)cc1C(=O)Nc1ccc(Br)cc1)c1cnccn1 | 21 d | MIC | 235/80 |  | 4 µM
O=C(Nc1cccc(C(F)(F)F)c1)c1ccc(Cl)cc1OS(=O)(=O)c1ccccc1 | 7 d | MIC | 235/80 |  | 125 µM
CCCCCCc1ccc(NC(=O)NNC(=O)c2ccncc2)cc1 | 14 d | MIC100 | My 6509/96 | broth dilution | 125 µM
Cc1ccc2oc(=S)n(-c3ccc(F)cc3)c(=S)c2c1 | 14 d | MIC | 6509/96 |  | 4 µM
O=C(Nc1ccc(Cl)c(Cl)c1)c1ccc(Cl)cc1OS(=O)(=O)c1ccccc1 | 14 d | MIC | 6509/96 |  | 8 µM
O=C(Oc1ccc(Cl)cc1)c1cnccn1 | 14 d | MIC | 235/80 |  | 500 µM
Fc1ccc(-n2c(=S)oc3ccc(F)cc3c2=S)cc1 | 21 d | MIC | 6509/96 |  | 8 µM
O=C(Oc1ccc(Cl)cc1C(=O)Nc1ccc(C(F)(F)F)cc1)c1cnccn1 | 21 d | MIC | 6509/96 |  | 2 µM
O=c1oc2ccc(Br)cc2c(=S)n1-c1ccc(C(F)(F)F)cc1 | 14 d | MIC | 6509/96 |  | 8 µM
O=C(NNC(=O)c1ccncc1)Nc1ccc(F)c(Cl)c1 | 7 d | MIC100 | My 235/80 | broth dilution | >125 µM
O=C(Oc1cc(Cl)ccc1C(=O)Nc1cccc(Cl)c1)c1cnccn1 | 14 d | MIC | 235/80 |  | 4 µM

The last 2 rows once more:

compound | setting | endpoint | strain or isolate | read by | result
O=C(NNC(=O)c1ccncc1)Nc1ccc(F)c(Cl)c1 | 7 d | MIC100 | My 235/80 | broth dilution | >125 µM
O=C(Oc1cc(Cl)ccc1C(=O)Nc1cccc(Cl)c1)c1cnccn1 | 14 d | MIC | 235/80 |  | 4 µM